Earlier results as cited in US8633150B2, “Methods for inducing sustained immune response” (TNI Biotech, Inc., priority 2001, dated 2014).

Tested on: CD4 and CD8 T-cell subsets in HIV positive patients
Conditions: et al.

**Q.** Which toxicity accompanying use (Davey, 2000) does the source give for interleukin-2 [IL2] here?
**A.** major toxicity

**Q.** What about the “CD4 T-cell subset in HIV positive patients” value (Kovacs, 1996) of the same substance?
**A.** elevating the CD4 T-cell subset

**Q.** And the “CD8 T-cell count” value (Schmitz, 1999)?
**A.** increase CD8 T-cell count
